Test results: publication PMC10979478, “Deciphering the Biosynthesis and Physiological Function of 5-Methylated Pyrazinones Produced by Myxobacteria” (ACS Central Science, 2024)
Entries after “also recorded” stand apart in the source; their conditions may differ. Some compounds share one wording; it may come from a single statement.

System: CorB
Assay: Enzymatic cleavage using CorB (HPLC-DAD)
Format: biochemical, Corallococcus exiguus SDU70
Conditions: 0.22 mM CorB, 37 °C, 12 hours

`CC[C@H](C)c1[nH]c(=O)c(CC(C)C)nc1C` [compound 2, coralinone B] was tested, and the “enzymatic hydrolysis by CorB” value was “no enzymatic reaction happened”.

For `Cc1nc(CC(C)C)c(=O)[nH]c1C(C)C` [compound 1, coralinone A], the “enzymatic hydrolysis by CorB” value was “no enzymatic reaction happened; also recorded: remained unchanged”.

With `CC(=O)[C@@H](NC(=O)[C@H](CC(C)C)NC(=O)OC(C)(C)C)C(C)C` [1b′] the “enzymatic hydrolysis by CorB” value was “remained unchanged” and the “enzymatic hydrolysis by CorB” value (listed as 1b') was “no enzymatic reaction happened”.
